Measured values from several laboratories, pooled; numbers as filed in NIAID ChemDB.

All rows: tests in culture; agent: HIV-1; endpoint: inhibition

Percent inhibition refers to the dose given; in toxicity tests it is the harm to the cells. Rows are shuffled and stem from different studies. Blank or dashed fields: not listed here.

structure | strain | tested at | mutations | cell line | read by | conditions | result
Nc1c(S(=O)(=O)O)cc2c3c(cc(S(=O)(=O)O)cc13)C(=O)N(NC(=O)N/N=C/c1cccc(C=O)c1)C2=O | - | 800 µM | - | MT-2 | syncytia | - | 100%
COC(=O)[C@H](OC(C)=O)[C@H]1C(C)(C)[C@H](OC(=O)C(C)C)[C@]2(O)CC3=C4CC(=O)O[C@@H](c5ccoc5)[C@]4(C)CC[C@@H]3[C@@]1(C)C2=O | NL4-3 | 20 µM | - | SupT1 | luciferase / luminescence | pseudotyped | 17.49%
Nc1nc(=O)n([C@H]2C[C@H](O)[C@@H](CO)O2)cc1-c1ccoc1 | IIIB | 10 µg/mL | - | H9 | RT activity | - | 20%
O=C1CSC(c2c(Cl)cccc2Cl)N1n1cnnc1 | NL4-3 | 5 µg/mL | - | TZM-bl | MTT | - | 39.08%
CCCCCCCCCCCCCCCCOCC(Cl)COP(=O)([O-])OCC[N+](C)(C)C | IIIB | 3 µM | - | H9 | RT activity | - | 89%
Nc1nc(NC2CC2)c2ncn([C@H]3C=C[C@@H](CO)O3)c2n1 | BRU PITT WT | 19 µM | - | PBMC | cytopathic effect / MTT | - | 90%
COC(=O)CNC(=O)[C@H](CS)NC(=O)CC[C@H](N)C(=O)O | LAV | 1000 µM | - | U1 (HIV-1 LAV PMA stimulated) + U1 | RT activity | - | 23%
COC(=O)C(O)[C@H]1[C@]2(C)C[C@@]3(OC(=O)C(C)C)[C@]1(C)[C@H]1CC[C@]4(C)C(=CC(=O)O[C@H]4c4ccoc4)[C@@]1(O)[C@@]3(O)C(=O)[C@H]2OC(C)=O | NL4-3 | 20 µM | - | SupT1 | luciferase / luminescence | pseudotyped | 0%
COc1cc(O)c2c(=O)oc3cc(O)cc(C)c3c2c1 | NL4-3 | 60 µM | - | Jurkat cells | luciferase | pseudotyped | 88%
COc1cc(C[C@@](O)(C(N)=O)[C@H](CO)Cc2ccc(OC)c(OC)c2)ccc1O | IIIB | 1.8 µM | - | H9 | syncytia | - | 93%
COc1cc(OC)nc(N2C(=O)CSC2c2c(Cl)ncnc2Cl)n1 | NL4-3 | 5 µg/mL | - | TZM-bl | MTT | - | 96.97%
CCc1cc(NCc2nc3c(Cl)ccc(Cl)c3o2)c(=O)[nH]c1C | Clinical isolate (RT K103R D67N K70R K219Q) | 0.4 µM | RT-D67N K70R K103R K219Q | PBMC | p24 | - | 90%
O=C1N(Cc2ccc(CO)cc2)[C@H](Cc2ccccc2)[C@H](O)[C@@H](O)[C@@H](Cc2ccccc2)N1Cc1ccc(CO)cc1 | Clinical isolate N | 0.05 µM | - | PBMC | p24 | - | 90%
COC(=O)C(O)[C@H]1C(C)(C)[C@H](OC(C)=O)[C@]2(O)[C@@H](OC(=O)C(C)C)[C@@]34O[C@]2(O)[C@]1(C)[C@H]3CC[C@]1(C)C4=CC(=O)O[C@H]1c1ccoc1 | NL4-3 | 20 µM | - | SupT1 | luciferase / luminescence | pseudotyped | 0%
O=C1CSC(c2c(Cl)ncnc2Cl)N1n1cnnc1 | NL4-3 | 5 µg/mL | - | TZM-bl | MTT | - | 27.27%
CC(C)Nc1cccnc1N1CCN(C(=O)c2cc3cc(N=CN(C)C)ccc3[nH]2)CC1 | Seropositive clinical isolate D | 1 µM | - | PBMC | MTT | - | 99%
COc1nc(C)nc(N2C(=O)CSC2c2c(Cl)ncnc2Cl)n1 | NL4-3 | 5 µg/mL | - | TZM-bl | MTT | - | <5%
COc1ccc(CN[C@@H](C(=O)N[C@H]2c3ccccc3C[C@H]2O)[C@H](O)[C@H](Cc2ccccc2)NC(=O)[C@@H](NC(=O)OCc2ccccc2)C(C)(C)C)cc1 | BaL | 0.087 µM | - | Primary monocytes + Monocyte | p24 | - | 90%
CC(C)(C)NC(=O)[C@@H]1CN(Cc2cccnc2)CCN1C[C@@H](O)C[C@@H](Cc1ccccc1)C(=O)N[C@H]1c2ccccc2C[C@H]1O | NL4-3 WT | 0.1 µM | - | MT-2 | p24 | - | 99.87%
Cc1cn([C@H]2C[C@H](N=[N+]=[N-])[C@@H](CO)O2)c(=O)[nH]c1=O | IIIB | 0.0078 µM | - | MT-4 | p24 | - | 73.62%
Nc1ncnc2c1ncn2[C@H]1CC[C@@H](CO)O1 | - | 2.5 µM | - | ATH8 | cytopathic effect | - | 26.9%
c1cc(CN2CCCNCCNCCCNCC2)ccc1CN1CCCNCCNCCCNCC1 | SW29 CLADE C R5 | 0.5 µM | - | PBMC | p24 | - | 13%
COc1cc(C[C@H]2C(=O)OC[C@@H]2Cc2ccc(OC)c(OC)c2)ccc1O | IIIB | 0.13 µM | - | H9 | RT activity | - | 69%
Nc1nc(=O)n([C@@H]2C[C@H](O)[C@@H](CO)O2)cc1-c1ccco1 | IIIB | 10 µg/mL | - | H9 | RT activity | - | 27.5%
CCOc1ccc(CSc2nc(Cc3c(Cl)cccc3Cl)c(C)c(=O)[nH]2)cc1 | - | 11 µM | RT-Y188L | MT-4 | cytopathic effect / MTT | - | 34%
C/C(=C(/CCOC(=O)C(C)C)SS/C(CCOC(=O)C(C)C)=C(\C)N(C=O)Cc1cnc(C)nc1N)N(C=O)Cc1cnc(C)nc1N | LAV-1 | 50 µM | - | CEM/HIV-1(LAV-1) + CEM | p24 | - | 0%
COC(=O)C(O)[C@H]1C(C)(C)[C@H](OC(C)=O)[C@]2(O)C=C3C4=CC(=O)O[C@@H](c5ccoc5)[C@]4(C)CC[C@@H]3[C@@]1(C)C2=O | NL4-3 | 100 µM | - | SupT1 | luciferase / luminescence | pseudotyped | 40.69%
Nc1nc(=O)n([C@@H]2C[C@H](O)[C@@H](CO)O2)cc1-c1nccs1 | IIIB | 10 µg/mL | - | H9 | RT activity | - | 13%
O=C(O)P(=O)(O)O | IIIB | 256 µM | - | PBL | RT activity | 28 d | 99%
c1cc2c(cc1[C@H]1OC[C@H]3[C@@H]1CO[C@@H]3c1ccc3c(c1)OCO3)OCO2 | IIIB | 8.2 µM | - | H9 | RT activity | - | 81%
CCOC(=O)c1c(C(C)C)c(C#N)c(=N)n2ccccc12 | - | 8 µM | - | MT-4 | cytopathic effect | - | 100%
Nc1nc(=O)n([C@@H]2C[C@H](O)[C@@H](CO)O2)cc1-c1ccccc1 | IIIB | 10 µg/mL | - | H9 | RT activity | - | 30%
CCC(C)C(=O)O[C@H]1[C@@]2(C)C[C@]3(O)[C@@]1(O)C(=O)C1=C(CC[C@]4(C)C1=CC(=O)O[C@H]4c1ccoc1)[C@]3(C)[C@H]2C(O)C(=O)OC | NL4-3 | 20 µM | - | SupT1 | luciferase / luminescence | pseudotyped | 14.34%
Nc1nc(=O)n([C@@H]2C[C@H](O)[C@@H](CO)O2)cc1-c1ccncc1 | IIIB | 10 µg/mL | - | H9 | RT activity | - | 35%
O=C1CSC(c2c(Cl)ncnc2Cl)N1c1ncccn1 | NL4-3 | 5 µg/mL | - | TZM-bl | MTT | - | <5%
CCCCCCc1ccsc1-c1cn([C@@H]2C[C@H](O)[C@@H](CO)O2)c(=O)[nH]c1=O | IIIB | 10 µg/mL | - | H9 | RT activity | - | 17%
C=C(C)[C@]12C[C@@H](COC(=O)c3ccccc3)[C@@]34O[C@]5(O[C@@H]1[C@@H]3[C@@H]1O[C@]1(CO)[C@@H](O)[C@@]1(O)[C@H]4[C@H]([C@H](C)[C@@H]1OC(=O)c1ccccc1)[C@H](C)CCCCCC[C@H]5O)O2 | - | 0.001 µM | - | PBMC | - | - | 90%
COc1cc(C[C@@]2(O)C(=O)OC[C@@H]2Cc2ccc(OC)c(OC)c2)ccc1O | IIIB | 0.52 µM | - | H9 | RT activity | - | 57%
Cc1ccc(C(=O)OC[C@H]2O[C@@H](n3cc(-c4ccoc4)c(N)nc3=O)C[C@@H]2OC(=O)c2ccc(C)cc2)cc1 | IIIB | 10 µg/mL | - | H9 | RT activity | - | >90%

4 of the rows above, restated:

structure	strain	tested at	mutations	cell line	read by	conditions	result
Nc1nc(NC2CC2)c2ncn([C@H]3C=C[C@@H](CO)O3)c2n1	BRU PITT WT	19 µM	-	PBMC	cytopathic effect / MTT	-	90%
COc1cc(C[C@@]2(O)C(=O)OC[C@@H]2Cc2ccc(OC)c(OC)c2)ccc1O	IIIB	0.52 µM	-	H9	RT activity	-	57%
Nc1nc(=O)n([C@@H]2C[C@H](O)[C@@H](CO)O2)cc1-c1nccs1	IIIB	10 µg/mL	-	H9	RT activity	-	13%
Cc1ccc(C(=O)OC[C@H]2O[C@@H](n3cc(-c4ccoc4)c(N)nc3=O)C[C@@H]2OC(=O)c2ccc(C)cc2)cc1	IIIB	10 µg/mL	-	H9	RT activity	-	>90%